Laboratory results taken from PMC5150637.
The exact form of at least one protein or probe is not confirmed. At least one verdict was read from the data and is not stated in words by the source.

Tested on: MBP-SphR
Experiment: EMSA
Settings: 10 mM Tris-HCl pH 7.5, 50 mM KCl, 1 mM DTT, 1 mM EDTA, 3 mM MgCl2, 50 ug/ml BSA, 4% glycerol, 0.05% NP-40, 50 ng/ul poly(dI-dC), 30 C, 30 min, recombinant protein, residues 1-356, protein details: N-terminal MBP (pMAL-c5X), label: biotin 3' end, probe letters rebuilt from the primers and the genome

GGTTGCCACTGTAGTGCCAGGGTGGTGGAGTCGAGGGGGGCGTAGCGGACAGGAAGGGGGTGAGCGCCGGCCATCCTGCATGGACGGCAAGGCAGGCGGGTAAAAAAAGGCCGCCTGCGT (double strand) [cerN promoter -200 to -81 probe]
binding result (C14-sphingosine): binds | binding result (C16-sphingosine): binds
